A mixed list of measured activities; the numbers were collected in NIAID ChemDB.

All rows: whole-cell or culture tests; organism: Mycobacterium avium complex

A number after MIC or MFC names an inhibition level or a share of isolates.

SMILES	strain	read-out	value
CCCCCCCCO[C@H]1OC([C@@H](COC)O[C@H]2O[C@H]([C@@H](O)CO)[C@@H](O)[C@@H]2O)[C@@H](OC)[C@@H]1OC	NJ304	MIC	>12.8 µg/mL
O[C@@H](c1cc2ccc(C(F)(F)F)cc2c2cc(C(F)(F)F)ccc12)[C@@H]1CCCCN1	5 clinical isolates	MIC	2–4 µg/mL
Cc1c(CN2CCSCC2)cc(-c2ccccc2F)n1-c1cccc2ccccc12	103317	MIC	2 µg/mL
Cc1c(F)c(N2CCNC(C)C2)cc2c1c(=O)c(C(=O)O)cn2C1CC1	53 strains	MIC90	12.5 µg/mL
O[C@@H](c1cc2ccc(C(F)(F)F)cc2c2cc(C(F)(F)F)ccc12)[C@H]1CCCCN1	5 clinical isolates	MIC	1–2 µg/mL
CCCCCC/C=C/c1ccc2c(c1)C(=O)c1nc3ccncc3c(=O)n1-2	19075	MIC	0.06 µg/mL
Cc1c(CN2CCN(C)CC2)cc(-c2ccccc2F)n1-c1cccc2ccccc12	103317	MIC	4 µg/mL
CCCCN(CCCC)C[C@@H](O)c1cc2c(Cl)cc(Cl)cc2c2cc(C(F)(F)F)ccc12	24 clinical isolates	MIC50	8 µg/mL
NC[C@H]1O[C@H](O[C@H]2[C@H](O)[C@@H](O[C@H]3O[C@H](CO)[C@@H](O)[C@H](N)[C@H]3O)[C@H](N)C[C@@H]2N)[C@H](O)[C@@H](O)[C@@H]1O	CIPT 140310003 (smooth)	MIC	10 µg/mL
COc1ccc(C2OC(c3ccncc3)=NN2C)c(OC)c1	12592 PI	MIC	>20 µg/mL
CCCCCCCCO[C@H]1O[C@H](CO[C@H]2O[C@H](CO)[C@@H](O)[C@@H]2O)[C@@H](OC)[C@@H]1OC	NJ211	MIC	>128 µg/mL
C/C=C/C/C=C/CCC(=O)[C@H]1O[C@H]1C(N)=O		MIC	6.25 µg/mL
O[C@@H](c1cc(C(F)(F)F)nc2c(C(F)(F)F)cccc12)[C@@H]1CCCCN1	5 clinical isolates	MIC	>16 µg/mL
CN[C@@H]1[C@H](O[C@H]2[C@H](O[C@H]3[C@H](O)[C@@H](O)[C@H](N=C(N)N)[C@@H](O)[C@@H]3N=C(N)N)O[C@@H](C)[C@]2(O)C=O)O[C@@H](CO)[C@H](O)[C@H]1O	CIPT 140310012	MIC	6 µg/mL
O=C1c2cc(F)ccc2-n2c1nc1c(OCc3ccccc3)cccc1c2=O	19075	MIC	>25 µg/mL
COc1ccc(C2OC(c3ccncc3)=NN2C)cc1F	12592 PI	MIC	>20 µg/mL
C[C@H]1CN(c2c(F)cc3c(=O)c(C(=O)O)cn(C4CC4)c3c2OC(F)F)CCN1	53 strains	MIC90	3.13 µg/mL
Cc1c(CN2CCSCC2)cc(-c2ccccc2Cl)n1-c1ccccc1F	103317	MIC	>16 µg/mL
NNC(=O)c1ccncc1	N-259 (HIV-)	MIC	1 µg/mL
CCN(CCN(C)C)c1ccc2nc3n(c(=O)c2c1)-c1ccc(Cl)cc1C3=O	19075	MIC	5 µg/mL
COc1ccc(OC)c(C2OC(c3ccncc3)=NN2C)c1	12592 PI	MIC	>20 µg/mL
Cc1c(F)c(N2CCNC(C)C2)cc2c1c(=O)c(C(=O)O)cn2C1CC1	clinical strain 2	MIC	8 µg/mL
C[C@@H](O)[C@H]1C(=O)N2C(C(=O)O)=C(SCCN=CN)C[C@H]12	CIPT 140310006	MIC	10 µg/mL
CCCCCCCCOC1O[C@@H](C(O)COC2O[C@@H](C(O)CO)[C@H](O)[C@H]2O)[C@H](O)[C@H]1O	NJ168	MIC	>128 µg/mL
CC[C@H]1OC(=O)[C@H](C)[C@@H](O[C@H]2C[C@@](C)(OC)[C@@H](OC(C)=O)[C@H](C)O2)[C@H](C)[C@@H](O[C@@H]2O[C@H](C)C[C@H](N(C)C)[C@H]2O)C(C)(O)C[C@@H](C)/C(=N\OC)[C@H](C)[C@@H](O)[C@]1(C)O	20039 (clarithromycin-susceptible)	MIC	6.25 µg/mL
Cc1c(CN2CCN(C)CC2)cc(-c2ccccc2F)n1-c1ccccc1F	103317	MIC	>16 µg/mL
CCOC(=O)c1ccc2c(c1)C(=O)c1nc3ccccc3c(=O)n1-2	101	MIC	1 µg/mL
CN1N=C(c2ccncc2)OC1c1ccccc1F	12592 PI	MIC	>20 µg/mL
CCCOc1ccc(OCC)cc1NCc1cnc2nc(N)nc(N)c2c1C	NJ168	MIC	8 µg/mL
CCCCCCCCO[C@@H]1O[C@@H]([C@H](COC)O[C@H]2O[C@H](COCc3ccccc3)[C@@H](OCc3ccccc3)[C@@H]2OCc2ccccc2)[C@H](OC)[C@H]1OC	NJ211	MIC	>128 µg/mL
NCC[C@H](O)C(=O)N[C@@H]1C[C@H](N)[C@@H](O[C@H]2O[C@H](CN)[C@@H](O)[C@H](O)[C@H]2O)[C@H](O)[C@H]1O[C@H]1O[C@H](CO)[C@@H](O)[C@H](N)[C@H]1O	900	MIC	1 µg/mL
CN1N=C(c2ccncc2)OC1c1ccc(Cl)c(Cl)c1	12592 PI	MIC	>20 µg/mL
CC[C@H]1OC(=O)[C@H](C)[C@@H](O[C@H]2C[C@@](C)(OC)[C@@H](O)[C@H](C)O2)[C@H](C)[C@@H](O[C@@H]2O[C@H](C)C[C@H](N(C)C)[C@H]2O)[C@](C)(OC)C[C@@H](C)C(=O)[C@H](C)[C@@H](O)[C@]1(C)O	N-444	MIC	2 µg/mL
CN[C@@H]1[C@H](O[C@H]2[C@H](O[C@H]3[C@H](O)[C@@H](O)[C@H](N=C(N)N)[C@@H](O)[C@@H]3N=C(N)N)O[C@@H](C)[C@]2(O)C=O)O[C@@H](CO)[C@H](O)[C@H]1O	N-251 (HIV-)	MIC	8 µg/mL
CCCCN(CCCC)C[C@H](O)c1cc2c(Cl)cc(Cl)cc2c2cc(C(F)(F)F)ccc12	5 clinical isolates	MIC	1–2 µg/mL
CCCCCCCCO[C@@H]1O[C@@H](C(CO[C@@H]2O[C@@H](C(O)CO)[C@H](O)[C@H]2O)OC)[C@H](OC)[C@H]1OC	NJ304	MIC	>128 µg/mL
CN1N=C(c2ccncc2)OC1c1cccc(Cl)c1	12592 PI	MIC	>20 µg/mL
CO[C@H]1/C=C/O[C@@]2(C)Oc3c(C)c(O)c4c(=O)c(c5oc6cc(N7CCN(CC(C)C)CC7)cc(=O)c6nc5c4c3=C2O)NC(=O)/C(C)=C\C=C\[C@H](C)[C@H](O)[C@@H](C)[C@@H](O)[C@@H](C)[C@H](OC(C)=O)[C@@H]1C	N-978 (HIV+)	MIC	0.1 µg/mL
O=C1c2c(Cl)cccc2-n2c1nc1ncccc1c2=O	19075	MIC	25 µg/mL
CCNC(=O)[C@@H](NC(=O)Cc1ccccc1)[C@@H]1N[C@@H](C(=O)NCCNC(=O)[C@@H]2N[C@@H]([C@H](NC(=O)Cc3ccccc3)C(=O)NCC)SC2(C)C)C(C)(C)S1	CIPT 140310003 (smooth)	MIC	50 µg/mL
CS/C(N)=N\N=C\c1ccnnc1	ATCC 19421	MIC	>100 µg/mL
C[C@@H]1CN(c2c(F)c(N)c3c(=O)c(C(=O)O)cn(C4CC4)c3c2F)C[C@H](C)N1	53 strains	MIC90	6.25 µg/mL
CCCCCCCCO[C@@H]1OC(C(CO[C@@H]2O[C@@H]([C@H](O)CO)[C@H](O)[C@H]2O)OC(C)=O)[C@H](OC(C)=O)[C@H]1OC(C)=O	NJ304	MIC	>128 µg/mL
Cc1c(CN2CCN(C)CC2)cc(-c2ccccc2Cl)n1-c1cccc2ccccc12	103317	MIC	4 µg/mL
CCCCCCCCO[C@@H]1O[C@H]([C@@H](COCc2ccccc2)O[C@H]2O[C@H](CO)[C@@H](O)[C@@H]2O)[C@H](OCc2ccccc2)[C@H]1OCc1ccccc1	NJ304	MIC	>128 µg/mL
O=C1c2cc(F)ccc2-n2c1nc1ccc(Cl)cc1c2=O	19075	MIC	0.06 µg/mL
CCN=c1cc2n(-c3ccc(Cl)cc3)c3ccccc3nc-2cc1Nc1ccc(Cl)cc1	453	MIC	0.25 µg/mL
CS/C(N)=N\N=C\c1cccnc1	ATCC 19421	MIC	>100 µg/mL

Again, the opening 3 rows:

SMILES	strain	read-out	value
CCCCCCCCO[C@H]1OC([C@@H](COC)O[C@H]2O[C@H]([C@@H](O)CO)[C@@H](O)[C@@H]2O)[C@@H](OC)[C@@H]1OC	NJ304	MIC	>12.8 µg/mL
O[C@@H](c1cc2ccc(C(F)(F)F)cc2c2cc(C(F)(F)F)ccc12)[C@@H]1CCCCN1	5 clinical isolates	MIC	2–4 µg/mL
Cc1c(CN2CCSCC2)cc(-c2ccccc2F)n1-c1cccc2ccccc12	103317	MIC	2 µg/mL

Conditions beyond the fields shown may differ between rows. Two numbers with a dash give a range or band. Blank or dashed fields: not listed here.